We go through one sequence from PMC6414702, “AtrR Is an Essential Determinant of Azole Resistance in Aspergillus fumigatus”.

The exact form of at least one protein or probe is not confirmed. At least one verdict rests on a figure or table, not on a statement of the authors. Where a protein sequence is shown, tags need not be part of it.

This data set addresses T1, SrbA (recombinant) (Aspergillus fumigatus) (UniProt Q4WIN1).
T1 sequence (looked up, limits assumed): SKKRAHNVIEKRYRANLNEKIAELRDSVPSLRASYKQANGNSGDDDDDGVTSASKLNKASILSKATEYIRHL
The data set can be described thus: EMSA. As to conditions: Biotin EMSA: 25 mM Tris-HCl pH 7.5, 80 mM NaCl, 35 mM KCl, 5 mM MgCl2, 10% glycerol, 1 ug poly(dI-dC), 20 ul, 0.1 ug AtrR-DBD, 20 pmol probe, room temperature 30 min; recombinant protein; label: 5' biotin on both strands.

As for “GAATCACGCGGTCCGGATGTGTGCTGAGCCGAAT (double strand) [cyp51A 34-bp probe]”, the binding result was “binds”.
